Two compounds from BindingDB's records for 12904075 can be followed below.

Amino acid sequences for entries named in this document (tags omitted).
UniProt Q14761, whole entry, looked up: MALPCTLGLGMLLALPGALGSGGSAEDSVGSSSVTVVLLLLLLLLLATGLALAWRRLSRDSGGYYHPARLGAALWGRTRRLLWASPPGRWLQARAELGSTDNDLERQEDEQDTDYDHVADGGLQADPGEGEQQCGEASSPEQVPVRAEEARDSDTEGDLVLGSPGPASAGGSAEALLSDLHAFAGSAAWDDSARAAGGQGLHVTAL

pKi: −log10 of the molar value.

The test has as its target Protein tyrosine phosphatase receptor type C-associated protein (Homo sapiens, UniProt Q14761). In words: ASSAY_NAME: ChEMBL_210866 (CHEMBL812679) DESCRIPTION: Inhibitory activity against Tyrosine phosphatase from Yersinia (Yop protein).

Regarding `CP(=O)(O)O`, the negative logarithm of the Ki (pKi) was 1.52.

As to `CP(O)(O)=S`, the negative-log Ki (pKi) was 2.15.
